# Vif LAI: effect of single changes on growth against APOBEC3G

Scanned stretch, residues 12 to 115 of Vif from HIV-1 LAI (a laboratory-adapted subtype B strain):
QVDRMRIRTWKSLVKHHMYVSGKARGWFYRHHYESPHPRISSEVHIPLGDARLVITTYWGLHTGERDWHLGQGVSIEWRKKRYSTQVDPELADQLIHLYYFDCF

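A pool of vif mutants was passaged twice, 72 h each, on SupT1 cells that express APOBEC3G. Each of three replicates was sequenced after round two and set against the merged round-one pool. The overlap of vif with pol had been removed, so integrase is unaffected.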

Scale: log2 enrichment, wild type = 0; negative values mean that the variant was depleted.
A change reads original residue, position, new residue.
The median of three replicates is given.
Input reads are the counts in the merged round-one pool, before selection.
The scan is noisy: the rank correlation of replicates is about 0.4 to 0.65, and variants with under about 50 input reads tend to read too high.
Not every substitution is listed.
The authors note that some positive scores may be noise, and some enriched variants failed when tested singly.

| substitution | input reads | median score |
|---|---|---|
| A62I | 20 | 1.31 |
| L59R | 101 | 2.83 |
| I87N | 449 | -1.43 |
| V31C | 66 | 0.40 |
| L24V | 894 | -2.52 |
| K34E | 67 | 0.03 |
| R41W | 520 | -1.77 |
| H73N | 436 | -4.06 |
| G75E | 544 | 1.51 |
| S46D | 954 | -2.00 |
| T20D | 1045 | -1.94 |
| T20W | 982 | -0.94 |
| H73E | 158 | 2.76 |
| K22R | 1204 | -1.10 |
| K91I | 381 | -1.34 |
| R36F | 436 | -0.99 |
| T74P | 93 | 3.64 |
| R15P | 437 | -0.72 |
| E76L | 1768 | -1.71 |
| P100L | 594 | -2.11 |
| Y30R | 61 | -0.14 |
| I87Q | 42 | 0.66 |
| P49L | 644 | -2.91 |
| V98C | 26 | 1.97 |
| K91R | 821 | 0.42 |
| D104V | 17 | -1.49 |
| Y69L | 479 | 0.56 |
| T67F | 866 | -3.48 |
| G60H | 359 | -0.56 |
| W89I | 528 | -3.60 |
| Y44F | 913 | -2.24 |
| S23I | 69 | 0.61 |
| R41T | 48 | 1.30 |
| S32H | 29 | 0.95 |
| L81W | 507 | -0.83 |
| L81D | 146 | 0.97 |
| Y40Q | 27 | -2.25 |
| H42L | 22 | -0.01 |
| F112P | 308 | -2.92 |
| V85S | 791 | -3.38 |
| M29I | 433 | 2.38 |
| E88V | 31 | 1.29 |
| K22E | 86 | -0.02 |
| R50K | 431 | -0.56 |
| I57N | 921 | -2.71 |
| R36A | 58 | 0.88 |
| H108D | 603 | -1.07 |
| R36P | 483 | -1.39 |
| I107A | 20 | 0.99 |
| R36I | 509 | -1.10 |
| H48T | 400 | -3.18 |
| Y111E | 141 | -1.78 |
| R15Q | 1366 | -2.29 |
| R17W | 685 | -0.75 |
| T74K | 839 | -1.30 |
| W21Q | 263 | 0.81 |
| T20F | 220 | -0.60 |
| Y69G | 878 | -3.70 |
| Y40D | 32 | 0.44 |
| S86K | 176 | -1.99 |
| K22N | 1958 | -1.78 |
| H42C | 203 | -2.19 |
| A62N | 1525 | 0.52 |
| D113M | 268 | -1.03 |
| W21F | 607 | -1.03 |
| P47F | 37 | 0.58 |
| V55S | 848 | -2.34 |
| E76A | 234 | -2.43 |
| H28S | 840 | -0.78 |
| D104H | 134 | -0.26 |
| V55F | 453 | -3.56 |
| F115Q | 217 | -1.03 |
| T20H | 1051 | -1.09 |
| P47G | 364 | -2.25 |
| E76C | 781 | -2.59 |
| Y69H | 451 | -3.36 |
| G71E | 653 | -3.48 |
| G37I | 1161 | -1.82 |
| R90G | 26 | 1.35 |
| V98R | 46 | -3.33 |
| A62R | 492 | -2.64 |
| W21Y | 443 | -1.61 |
| S23H | 304 | -1.70 |
| V85T | 771 | -2.22 |
| H43N | 670 | -1.79 |
| S86L | 315 | -1.94 |
| H80F | 793 | -2.36 |
| K26I | 524 | -1.88 |
| Q105T | 264 | -3.71 |
| V85I | 72 | 0.17 |
| V65H | 1590 | -1.70 |
| P47I | 311 | -1.40 |
| H43Y | 1279 | -0.94 |
| A103G | 29 | -2.70 |
| Y111R | 175 | 3.77 |
| P47R | 21 | 2.39 |
| H42W | 61 | 3.20 |
| F115L | 246 | -5.30 |
| P100W | 167 | -1.28 |
| I18R | 69 | 0.43 |
| D113V | 153 | 0.83 |
| L102Y | 104 | -0.90 |
| F39Q | 547 | -1.33 |
| S53L | 191 | -1.20 |
| D99G | 457 | -1.81 |
| E45S | 968 | -2.21 |
| L72V | 129 | -2.67 |
| H48K | 817 | -4.04 |
| V65Y | 485 | -1.54 |
| S46A | 627 | -3.96 |
| S52D | 342 | -3.70 |
| R41K | 416 | -1.91 |
| W70P | 796 | -2.04 |
| K92V | 345 | -1.59 |
| H48C | 900 | -2.28 |
| H43K | 541 | -1.92 |

The opening 8 entries, copied out:

{"substitution": "A62I", "input reads": "20", "median score": 1.31}
{"substitution": "L59R", "input reads": "101", "median score": 2.83}
{"substitution": "I87N", "input reads": "449", "median score": -1.43}
{"substitution": "V31C", "input reads": "66", "median score": 0.40}
{"substitution": "L24V", "input reads": "894", "median score": -2.52}
{"substitution": "K34E", "input reads": "67", "median score": 0.03}
{"substitution": "R41W", "input reads": "520", "median score": -1.77}
{"substitution": "H73N", "input reads": "436", "median score": -4.06}

The measurements come from Langley et al. 2025, preprint (doi:10.1101/2025.10.20.683452).